Where two headings read alike, the source gives them in different places.
Tests used:
[1] = test system: Trypanosome (T. brucei brucei); assay: In-vitro antitrypanosomal efficacy assay (cell growth, resazurin); type: cell-based
[2] = target: T. brucei N-myristoyl transferase (Trypanosoma brucei brucei (strain 927/4 GUTat10.1), UniProt Q388H8); assay: NMT enzyme inhibition scintillation proximity assay, T. brucei NMT; type: biochemical
[3] = target: L. major N-myristoyl transferase (Leishmania major, UniProt Q4Q5S8); conditions: read-out: IC50 (μM) NMT Enzyme (LmNMT)
[4] = T. brucei brucei, blood stream form, variant 221

Protein sequences, listed by entry. Tags and fused reporters are not part of them. Residues count along the entry.
UniProt Q388H8, 1-446: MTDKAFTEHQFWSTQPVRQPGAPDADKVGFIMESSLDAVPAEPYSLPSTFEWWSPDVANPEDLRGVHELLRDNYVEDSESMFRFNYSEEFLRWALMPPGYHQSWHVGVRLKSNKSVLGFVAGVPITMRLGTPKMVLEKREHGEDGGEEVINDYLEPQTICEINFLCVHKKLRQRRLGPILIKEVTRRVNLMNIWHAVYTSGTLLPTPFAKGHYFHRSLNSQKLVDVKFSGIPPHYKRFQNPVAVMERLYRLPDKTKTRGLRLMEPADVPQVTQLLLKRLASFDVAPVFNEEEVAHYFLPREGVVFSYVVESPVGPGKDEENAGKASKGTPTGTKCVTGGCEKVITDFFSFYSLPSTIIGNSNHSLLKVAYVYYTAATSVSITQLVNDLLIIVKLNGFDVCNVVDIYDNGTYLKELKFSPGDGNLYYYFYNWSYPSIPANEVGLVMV
UniProt Q4Q5S8, 1-421: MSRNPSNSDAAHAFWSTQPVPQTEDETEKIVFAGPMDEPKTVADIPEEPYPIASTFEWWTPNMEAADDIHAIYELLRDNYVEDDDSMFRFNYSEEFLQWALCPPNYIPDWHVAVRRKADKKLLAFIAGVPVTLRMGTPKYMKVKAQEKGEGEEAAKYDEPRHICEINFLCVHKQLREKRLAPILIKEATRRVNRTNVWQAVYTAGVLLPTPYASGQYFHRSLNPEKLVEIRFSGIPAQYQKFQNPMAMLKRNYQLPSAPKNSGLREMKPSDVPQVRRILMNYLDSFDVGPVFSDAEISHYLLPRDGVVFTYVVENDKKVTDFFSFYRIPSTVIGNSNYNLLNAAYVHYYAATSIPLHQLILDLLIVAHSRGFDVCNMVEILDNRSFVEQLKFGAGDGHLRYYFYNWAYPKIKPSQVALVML

Row | Compound | ED50 (μM) T. brucei ([1]; T. brucei cell growth) | further results
1 | Cc1nn(C)c(C)c1NS(=O)(=O)c1ccc(NCc2ccccc2)nc1 | >1 µM | 
2 | Cc1nn(C)c(C)c1NS(=O)(=O)c1ccc(CNc2cccc3ccccc23)cc1 | >1 µM | 
3 | Cc1nn(C)c(C)c1NS(=O)(=O)c1cccc(C#N)c1 | >1 µM | 
4 | COc1ccc(-c2cc(Cl)c(S(=O)(=O)Nc3c(C)nn(C)c3C)c(Cl)c2)c(OC)c1 | >1 µM | 
5 | Cc1nn(C)c(C)c1N(C)S(=O)(=O)c1ccc(Cl)nc1 | >1 µM | 
6 | Cc1noc(C)c1NS(=O)(=O)c1ccc(Cl)nc1 | >1 µM | 
7 | Cc1nn(C)c(C)c1NS(=O)(=O)c1c(Cl)cc(-c2ccc3[nH]ccc3c2)cc1Cl | >1 µM | 
8 | Cc1nn(C)c(C)c1NS(=O)(=O)c1c(Cl)cc(-c2ccc(CO)cc2)cc1Cl | 3.4 µM | 
9 | Cc1nn(C)c(C)c1NS(=O)(=O)c1ccc(N2CCc3ccc(Br)cc3C2)nc1 | >1 µM | IC50 ([2]; read-out: IC50 (μM) NMT Enzyme): 2.4 µM
10 | Cc1c(NS(=O)(=O)c2ccc(Br)cc2)c(Cc2ccccc2)nn1C |  | ED50 (μM) T. brucei [1, 4]: 33.9 µM; IC50 [3]: > 1 µM
11 | Cc1nn(C)c(C)c1NS(=O)(=O)c1ccc(NCCN(C)C)nc1 | >1 µM | 
12 | Cc1c(N(C(F)F)S(=O)(=O)c2c(Cl)cc(Br)cc2Cl)c(CC(C)C)nn1C |  | IC50 ([2]; read-out: IC50 (μM) NMT Enzyme (T. brucei NMT), T. brucei NMT, value without parentheses): 5.3 µM; ED50 (μM) T. brucei [1, 4]: >1 µM; IC50 ([3]; Leishmania major NMT, value in parentheses): 1.2 µM
13 | Cc1nn(C)c(C)c1NS(=O)(=O)c1ccc(Cn2cnc(Br)c2)cc1 | >1 µM | 
14 | Cc1cc(CNc2ccc(S(=O)(=O)Nc3c(C)nn(C)c3C)cn2)no1 | 7.9 µM | 
15 | Cc1nn(C)c(C)c1NS(=O)(=O)c1ccc(C[S+]([O-])c2ccc3ccccc3c2)cc1 (centres unmarked) | >1 µM | IC50 ([2]; read-out: IC50 (μM) NMT Enzyme, value printed without enzyme tag in the NMT Enzyme column (taken as T. brucei NMT)): 9.3 µM
16 | Cc1nn(C)c(C)c1NS(=O)(=O)c1c(Cl)cc(-c2ccc(CN3CCCCC3)cc2)cc1Cl | >1 µM | 
17 | Cc1nn(C)c(C)c1NS(=O)(=O)c1ccc(Cn2ccnc2Br)cc1 | >1 µM | 
18 | Cc1nn(C)c(C)c1NS(=O)(=O)c1c(Cl)cc(-c2ccc(OC(F)(F)F)cc2)cc1-c1ccc(OC(F)(F)F)cc1 | >1 µM | 

Source: patent US9156811B2 (priority 2008, dated 2015)
